Data as given in PubChem BioAssay AID624099 (ICCB-Longwood, 2012).

- Aim: 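Human genes that papillomavirus E2 requires to repress the HPV18 LCR promoter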 (primary screen)
- Cells: human C33A cervical carcinoma cells (HPV-negative) stably expressing BPV1 E2 and an HPV18 LCR luciferase reporter
- Reagents: siRNA pool against human genes, 40 nM
- Time to read-out: 72 h
- Measurement: 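HPV18 LCR reporter light per well, converted to plate-wise z-scores that exclude control wells, and averaged over triplicate plates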
- Reading the numbers: mean z-score and z-score: higher = stronger reporter signal, weaker E2 silencing
- Hit rule: 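Mean z ≥ 2 together with z ≥ 2 in two or more of the three replicates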
The whole screen tested about 21,000 reagents; below is a random part of them. Over the whole deposit, 497 (2.4%) are marked active. 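Higher z means weaker E2 silencing; only reporter increases were scored, and knock-downs that hurt cell survival may mask genuine repressor factors.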 Reagents against one gene are numbered here. No sequences are given here.

The first 4 entries, to show the layout:
gene | pool no. | mean z-score | z-score, replicate A | z-score, replicate B | z-score, replicate C | activity call
LHB (luteinizing hormone subunit beta) | 1 | 0.53 | 0.41 | 0.78 | 0.41 | inactive
TASOR2 (transcription activation suppressor family member 2) | 1 | -0.03 | 0.34 | -0.15 | -0.28 | inactive
UBE2Q2P1 (UBE2Q2 pseudogene 1) | 1 | -0.46 | -0.57 | -0.66 | -0.16 | inactive
DPY19L1P1 (DPY19L1 pseudogene 1) | 1 | -1.76 | -2.04 | -1.51 | -1.72 | inactive

Main list, repeating the preview:
gene | pool no. | mean z-score | z-score, replicate A | z-score, replicate B | z-score, replicate C | activity call
LHB (luteinizing hormone subunit beta) | 1 | 0.53 | 0.41 | 0.78 | 0.41 | inactive
TASOR2 (transcription activation suppressor family member 2) | 1 | -0.03 | 0.34 | -0.15 | -0.28 | inactive
UBE2Q2P1 (UBE2Q2 pseudogene 1) | 1 | -0.46 | -0.57 | -0.66 | -0.16 | inactive
DPY19L1P1 (DPY19L1 pseudogene 1) | 1 | -1.76 | -2.04 | -1.51 | -1.72 | inactive
MECOM (MDS1 and EVI1 complex locus) | 1 | -0.24 | 0.22 | -0.38 | -0.57 | inactive
MECOM (MDS1 and EVI1 complex locus) | 2 | 1.05 | 1.36 | 0.9 | 0.88 | inactive
DBT (dihydrolipoamide branched chain transacylase E2) | 1 | 0.66 | 0.77 | 0.43 | 0.77 | inactive
HDX (highly divergent homeobox) | 1 | -2.82 | -2.51 | -2.79 | -3.15 | inactive
OR5B2 (olfactory receptor family 5 subfamily B member 2) | 1 | 0.44 | 0.07 | 0.81 | 0.43 | inactive
RAB43P1 (RAB43 pseudogene 1) | 1 | -2.33 | -1.97 | -2.75 | -2.28 | inactive
BDP1 (BDP1 general transcription factor IIIB subunit) | 1 | -0.46 | -0.72 | -0.26 | -0.39 | inactive
PRRG2 (proline rich and Gla domain 2) | 1 | 0.67 | 0.86 | 0.65 | 0.5 | inactive
NADK (NAD kinase) | 1 | -0.74 | -0.29 | -1.34 | -0.58 | inactive
MECP2 (methyl-CpG binding protein 2) | 1 | 1.14 | 0.94 | 1.47 | 1.01 | inactive
SPACA6 (sperm acrosome associated 6) | 1 | -0.28 | 0.19 | -0.63 | -0.4 | inactive
CYTOR (cytoskeleton regulator RNA) | 1 | 0.43 | 0.44 | 0.27 | 0.59 | inactive
LOC343221 (retired record) | 1 | -1.16 | -1.37 | -0.91 | -1.2 | inactive
GFAP (glial fibrillary acidic protein) | 1 | 0.07 | 0.02 | 0 | 0.18 | inactive
WDHD1 (WD repeat and HMG-box DNA binding protein 1) | 1 | -1.01 | -1.01 | -1.02 | -1 | inactive
MAPK9 (mitogen-activated protein kinase 9) | 1 | -0.37 | -0.44 | -0.46 | -0.21 | inactive
STMN4 (stathmin 4) | 1 | 0.68 | 1.08 | 0.97 | -0.01 | inactive
OR51A4 (olfactory receptor family 51 subfamily A member 4) | 1 | -0.01 | -0.05 | 0.09 | -0.06 | inactive
ATPSCKMT (ATP synthase c subunit lysine N-methyltransferase) | 1 | -0.48 | -0.13 | -0.56 | -0.76 | inactive
CHCHD1 (coiled-coil-helix-coiled-coil-helix domain containing 1) | 1 | -0.37 | -0.1 | -0.55 | -0.47 | inactive
PIP4P1 (phosphatidylinositol-4,5-bisphosphate 4-phosphatase 1) | 1 | 0.8 | 0.79 | 0.65 | 0.97 | inactive
RELT (RELT TNF receptor) | 1 | 0.86 | 0.7 | 0.8 | 1.1 | inactive
FBL (fibrillarin rRNA 2'-O-methyltransferase) | 1 | -1.81 | -1.49 | -1.96 | -1.97 | inactive
NFE2L1 (NFE2 like bZIP transcription factor 1) | 1 | 0.09 | 0.03 | 0.17 | 0.07 | inactive
FHL3 (four and a half LIM domains 3) | 1 | 0.11 | -0.07 | 0.1 | 0.3 | inactive
PRPH (peripherin) | 1 | 1.53 | 1.57 | 1.56 | 1.46 | inactive
LINC02864 (long independently transcribed non-coding RNA 2864) | 1 | 1.9 | 2.15 | 1.62 | 1.92 | inactive
ERMN (ermin) | 1 | -0.16 | -0.3 | -0.27 | 0.1 | inactive
RUNX1T1 (RUNX1 partner transcriptional co-repressor 1) | 1 | 0.99 | 1.14 | 0.77 | 1.06 | inactive
ADAMTS9 (ADAM metallopeptidase with thrombospondin type 1 motif 9) | 1 | -0.42 | -0.16 | -0.59 | -0.53 | inactive
MTRFR (mitochondrial translation release factor in rescue) | 1 | -0.55 | -0.36 | -0.7 | -0.58 | inactive
GRSF1 (G-rich RNA sequence binding factor 1) | 1 | 0.44 | 0.45 | 0.42 | 0.43 | inactive
PLA2G12B (phospholipase A2 group XIIB) | 1 | -0.1 | -0.01 | -0.02 | -0.27 | inactive
COL9A2 (collagen type IX alpha 2 chain) | 1 | -0.05 | 0.01 | -0.04 | -0.13 | inactive
KIR2DL5A | 1 | -0.9 | -0.75 | -1.02 | -0.93 | inactive
SFXN2 (sideroflexin 2) | 1 | -1.63 | -1.99 | -1.39 | -1.51 | inactive
ME2 (malic enzyme 2) | 1 | 0.51 | 0.54 | 0.64 | 0.36 | inactive
RPL32P3 (ribosomal protein L32 pseudogene 3) | 1 | 0.12 | 0.16 | 0.23 | -0.04 | inactive
ZCCHC14 (zinc finger CCHC-type containing 14) | 1 | 0.55 | 0.92 | 0.84 | -0.12 | inactive
LOC402488 (retired record) | 1 | -1.7 | -1.71 | -1.61 | -1.79 | inactive
NME8 (NME/NM23 family member 8) | 1 | -0.16 | 0.08 | -0.38 | -0.17 | inactive
NOA1 (nitric oxide associated 1) | 1 | 0.84 | 0.88 | 0.57 | 1.07 | inactive
CFTR (CF transmembrane conductance regulator) | 1 | 0.43 | 0.14 | 0.63 | 0.52 | inactive
LRRTM1 (leucine rich repeat transmembrane neuronal 1) | 1 | 1.13 | 0.88 | 1.35 | 1.16 | inactive
LOC400388 (retired record) | 1 | -0.13 | -0.05 | -0.24 | -0.11 | inactive
LOC388755 (retired record) | 1 | 0.48 | 0.27 | 0.84 | 0.33 | inactive
GNL3 (G protein nucleolar 3) | 1 | 0.19 | 0.14 | 0.27 | 0.16 | inactive
SIGLEC15 (sialic acid binding Ig like lectin 15) | 1 | -0.15 | -0.27 | -0.14 | -0.04 | inactive
JUND (JunD proto-oncogene, AP-1 transcription factor subunit) | 1 | -0.58 | -0.32 | -0.79 | -0.64 | inactive
BRCA1 (BRCA1 DNA repair associated) | 1 | -0.6 | -0.52 | -0.55 | -0.74 | inactive
ANKS1B (ankyrin repeat and sterile alpha motif domain containing 1B) | 1 | 0.17 | 0.04 | 0.09 | 0.38 | inactive
LATS2 (large tumor suppressor kinase 2) | 1 | 0.77 | 0.53 | 0.91 | 0.86 | inactive
UBALD1 (UBA like domain containing 1) | 1 | -0.13 | -0.29 | -0.29 | 0.19 | inactive
KAT7 (lysine acetyltransferase 7) | 1 | 0.26 | 0.22 | 0.52 | 0.05 | inactive
TSC22D3 (TSC22 domain family member 3) | 1 | 0.06 | 0.1 | 0.14 | -0.07 | inactive
HSPBP1 (HSPA (Hsp70) binding protein 1) | 1 | -1.37 | -1.38 | -1.18 | -1.56 | inactive
MAN1A1 (mannosidase alpha class 1A member 1) | 1 | -0.12 | -0.19 | -0.08 | -0.1 | inactive
UCHL1 (ubiquitin C-terminal hydrolase L1) | 1 | 0.42 | 0.66 | 0.48 | 0.14 | inactive
GCSAML (germinal center associated signaling and motility like) | 1 | -0.92 | -1.32 | -0.36 | -1.09 | inactive
ALDH1A2 (aldehyde dehydrogenase 1 family member A2) | 1 | -1.14 | -1.2 | -1.11 | -1.1 | inactive
TERF2 (telomeric repeat binding factor 2) | 1 | 0.57 | 0.48 | 0.57 | 0.66 | inactive
RUFY2 (RUN and FYVE domain containing 2) | 1 | 1.16 | 0.86 | 1.11 | 1.51 | inactive
SPINK2 (serine peptidase inhibitor Kazal type 2) | 1 | -0.08 | -0.11 | -0.14 | 0 | inactive
MAGEE1 (MAGE family member E1) | 1 | -0.68 | -0.52 | -0.66 | -0.85 | inactive
UGT3A1 (UDP glycosyltransferase family 3 member A1) | 1 | 0.16 | 0.55 | 0.16 | -0.24 | inactive
SCGB2A1 (secretoglobin family 2A member 1) | 1 | 0 | -0.37 | -0.04 | 0.42 | inactive
TBX5 (T-box transcription factor 5) | 1 | -0.07 | -0.25 | -0.14 | 0.19 | inactive
MAST2 (microtubule associated serine/threonine kinase 2) | 1 | -0.65 | -0.57 | -0.77 | -0.61 | inactive
CSPG4 (chondroitin sulfate proteoglycan 4) | 1 | 0.3 | -0.08 | 0.7 | 0.27 | inactive
